Pooled drug test results. Numbers come from NIAID ChemDB, via PubChem.

Common to all: growth or infection tests; agent: Mycobacterium tuberculosis

Neighbouring rows are from separate reports. MIC50, MIC90 and the like: level of inhibition, or share of isolates inhibited. Blank or dashed fields: not listed here. Inhibition is in % at the dose shown (toxicity tests: loss of growth or viability). ECn is the concentration giving n% inhibition of infection, replication or growth. MIC bound: limit read from a one-dose screen.

| smiles | strain | method | setting | read-out | tested at | value |
|---|---|---|---|---|---|---|
| CC1(C)[C@H]2CC[C@@H](CNCCNCCCN3CCCC3=O)[C@@H]1C2 |  |  |  | MIC |  | 50 µM |
| Cc1ccc(C2=NN(C(=O)c3ccncc3)C(O)(C(F)(F)F)C2)cc1 | RGH102 |  |  | MIC |  | 71.63 µM |
| Cc1c(N)c(=O)[nH]c2ccccc12 | H37Rv |  |  | EC50 |  | >6.25 µg/mL |
| O=C(Nc1sc(-c2ccc(OCc3c(Cl)cccc3Cl)cc2)cc1C(=O)O)c1cccs1 | H37Rv | resazurin |  | MIC |  | 27.4 µM |
| CC(Sc1ncnc2c1cnn2COCCO)C(N)=O | H37Rv |  |  | MIC |  | >6.25 µg/mL |
| O=C(c1ccncc1)N1N=C(c2cccs2)CC1(O)C(Cl)(Cl)Cl | RGH101 |  |  | MIC |  | >257 µM |
| O=C(Nc1sc(-c2ccc(OCc3c(Cl)cccc3Cl)cc2)cc1C(=O)O)c1ccccc1 | H37Rv | resazurin |  | EC50 |  | 85.74 µM |
| CC(=O)Nc1c(OC(C)=O)nc2ccc(Cl)cc2c1-c1ccccc1 | H37Rv |  |  | MIC |  | >6.25 µg/mL |
| O=C(c1ccncc1)N1N=C(c2ccccc2)CC1(O)C(F)(F)F | RGH102 |  |  | MIC |  | >298.5 µM |
| CN(C)c1ccc(/C=N/NC(=O)c2ccccc2N)c(Cl)c1 | H37Rv | BACTEC |  | inhibition | 12.5 µg/mL | 6% |
| CCOc1nnc(NS(=O)(=O)c2ccc(N)cc2)o1 |  | fluorescence |  | MIC |  | 6.4 µM |
| O=C(NCc1cccnc1)c1ccccc1O | H37Rv |  | 21 d | MIC |  | 500 µM |
| CC1=NN(C(=O)CC(=O)Nc2ccc(C(=O)O)cc2)C(=O)C1N=Nc1ccccc1C(=O)O | H37Rv | BACTEC |  | MIC |  | ≥12.8 µg/mL |
| O=C(C1COc2ccccc2O1)N1CCN(Cc2nc(-c3ccsc3)no2)CC1 |  | fluorescence |  | inhibition | 20 µM | 4% |
| CN1C(=O)C2C(=O)N(Cc3ccccc3)CC(=O)N2c2cccnc21 | H37Rv | resazurin |  | inhibition | 6.25 µg/mL | -4% |
| FC(F)(F)c1cc(NCCN2CCCC2)c2cccc(C(F)(F)F)c2n1 | H37Rv |  |  | MIC |  | >6.25 µg/mL |
| CNC(=O)SC1=NS(=O)(=O)c2ccc(Cl)cc2N1 | H37Rv | BACTEC |  | inhibition | 6.25 µg/mL | 0% |
| O=Cc1coc2ccccc2c1=O | My 331/88 |  |  | MIC |  | 1000 µM |
| COc1cc(OC)c(/C=C2/N=C(c3ccc(C)cc3)OC2=O)c(OC)c1 | H37Rv | resazurin |  | MIC |  | 2 µg/mL |
| Cc1nnn(NC(=O)c2ccccc2)c1C | H37Rv | BACTEC |  | inhibition | 12.5 µg/mL | 34% |
| CC(=O)N1N=C(c2ccc(NC(=O)C(c3ccc(Cl)cc3)C(C)C)cc2)CC1c1ccco1 | H37Rv | BACTEC |  | inhibition | 6.25 µg/mL | 0% |
| CCOc1ccccc1CNCCNC[C@]1(C)CCC[C@]2(C)c3ccc(C(C)C)cc3CC[C@@H]12 |  |  |  | MIC |  | 25 µM |
| CC(C)=Nc1c(-c2ccccc2)c2cc(Cl)ccc2[nH]c1=O | H37Rv |  |  | MIC |  | >6.25 µg/mL |
| O=C(N/N=C/c1cccc(F)c1)c1ccncc1 | Isoniazid-resistant |  |  | MIC |  | >6.4 µg/mL |
| COC(=O)C1=C(\N2CCCC2)CC(C)(C)CC(=O)/C=C\1C(=O)OC | H37Rv | BACTEC |  | MIC bound |  | >12.5 µg/mL |
| O=C(c1ccncc1)N1N=C(c2ccco2)CC1(O)C(F)(F)F | RGH104 |  |  | MIC |  | 38.46 µM |
| O=C(NCc1ccccn1)c1cc(Cl)ccc1O | H37Rv |  | 14 d | MIC |  | 125 µM |
| C/C(=C\COc1ccc2ccc(=O)oc2c1)C1=CC(=O)C(C)(C)O1 | H37Rv | BACTEC |  | inhibition | 12.8 µg/mL | 43% |
| NNC(=O)C1CCNC2CCCCC21 | BCG |  |  | MIC |  | 80 µg/mL |
| NC(=O)C(=O)C1C(=O)N(c2ccccc2)N=C1N | H37Rv | resazurin |  | MIC bound |  | >6.25 µg/mL |
| Cc1ccc(C2=N/C(=C/c3ccc(Cl)cc3)C(=O)O2)cc1 | H37Rv | resazurin |  | MIC |  | 16 µg/mL |
| NC(=O)CSc1ncnc2c1cnn2COCCO | H37Rv |  |  | MIC |  | >6.25 µg/mL |
| COC(=O)c1cc2c(=O)n(C)c(=O)n(C)c2[nH]c1=O | H37Rv | resazurin |  | MIC bound |  | >6.25 µg/mL |
| CN(Cc1nnc(-c2ccco2)o1)Cc1c(F)cccc1Cl |  | fluorescence |  | MIC |  | 0.8 µM |
| C1=C2CCCC/C=C\C=C\CCN3CC[C@@H]4[C@H](CCCCCC/C=C\C=C/CCN(C2)C[C@H]14)C3 | H37Rv Kurono (ATCC 35812) |  |  | MIC |  | 3.13 µg/mL |
| CC(NNC(=O)c1ccncc1)c1cccc(C(F)(F)F)c1 | H37Rv (thiacetazone-resistant) |  |  | MIC |  | >31.25 µg/mL |
| NNC(=O)c1ccncc1 | BCG |  |  | MIC |  | 0.02 µg/mL |
| Cc1nc2c(-c3ccccc3)c3cc(Cl)ccc3nc2o1 | H37Rv |  |  | MIC |  | >6.25 µg/mL |
| Cc1cccc(C(=O)NCc2ccccn2)c1O | H37Rv |  | 14 d | MIC |  | 62.5 µM |
| COCCCn1c(C(Cl)(Cl)Cl)nn2c(=O)c3ccccc3nc2c1=O | H37Rv | BACTEC |  | MIC bound |  | >12.5 µg/mL |
| c1ccc(C(CCNCCNC(c2ccccc2)c2ccccc2)c2ccccc2)cc1 |  |  |  | MIC |  | 25 µM |
| COc1ccc(C(=O)NCc2cccnc2)c(O)c1 | H37Rv |  | 21 d | MIC |  | 500 µM |
| Cc1cc2oc(=O)c(C(=O)/C=C/c3ccccn3)c(O)c2cc1C | H37Rv | agar |  | MIC90 |  | >6.25 µg/mL |
| Cc1ccc(C2=N/C(=C/c3ccc(F)cc3)C(=O)O2)cc1 | H37Rv | resazurin |  | MIC |  | 16 µg/mL |
| CC(C)C(C(=O)Nc1ccc(C2=CC(c3c(Cl)cccc3Cl)C(C#N)=C(N)O2)cc1)c1ccc(Cl)cc1 | H37Rv | BACTEC |  | inhibition | 6.25 µg/mL | 0% |
| COc1ccccc1C(=O)Nc1sc(-c2ccc(OCc3c(Cl)cccc3Cl)cc2)cc1C(=O)O | H37Rv | resazurin |  | MIC |  | >128 µM |
| O=c1oc2ccccc2c(O)c1C1=NN(c2ccccc2)C(c2ccc(C(F)(F)F)cc2)C1 | H37Rv | agar |  | MIC90 |  | >6.25 µg/mL |
| CC(C)C(C(=O)Nc1ccc(C2=CC(c3ccc(O)cc3)C(C#N)=C(N)O2)cc1)c1ccc(Cl)cc1 | H37Rv | BACTEC |  | inhibition | 6.25 µg/mL | 26% |
| c1csc(-c2nnc(COc3ccc4c(c3)OCO4)o2)c1 |  | fluorescence |  | MIC |  | 1.5 µM |
| Cc1ccc(C2=N/C(=C/c3ccc(N(C)C)cc3)C(=O)O2)cc1 | H37Rv | resazurin |  | MIC |  | 4 µg/mL |
| Cc1cnc(C(=O)O)c(C(=O)O)n1 | H37Rv | BACTEC |  | MIC |  | ≥12.5 µg/mL |
| COC(=O)Nc1sc(-c2ccc(OCc3c(Cl)cccc3Cl)cc2)cc1C(=O)O | H37Rv | resazurin |  | MIC |  | 3.7 µM |
| O=C(NNC(=O)C1CCNCC1)C1CCNCC1 | BCG |  |  | MIC |  | 8 µg/mL |
| O=C(Nn1c(-c2ccccc2)ccc1-c1ccccc1)c1ccncc1 | H37Rv (ATCC 27294) | turbidity |  | MBC |  | 4.4 µg/mL |
| O=C(NNS(=O)(=O)C1CCCCC1)C1CCNCC1 | BCG |  |  | MIC |  | 3 µg/mL |
| O=[N+]([O-])c1ccccc1S(=O)(=O)c1ccc(Cl)cc1 | H37Rv | resazurin |  | inhibition | 6.25 µg/mL | 6% |
| COc1cccc(C2CC(c3c(O)c4cc(C)c(C)cc4oc3=O)=NN2c2ccccc2)c1O | H37Rv | agar |  | MIC90 |  | >6.25 µg/mL |
| CCCCCCCCCCCC(=O)NN | BCG |  |  | MIC |  | 3 µg/mL |
| COc1ccc(CNCCNCCc2ccc(Cl)cc2Cl)cc1OC |  |  |  | MIC |  | 50 µM |
| S=C(S)N1CCNCC1 | H37Rv | BACTEC |  | inhibition | 12.5 µg/mL | 23% |
| O=c1[nH]c2ccc(Cl)cc2c(-c2ccccc2)c1-[n+]1ccccc1 | H37Rv |  |  | inhibition | 6.25 µg/mL | 0% |
| Cc1cc2oc(=O)c(C3=NNC(c4ccc(C(F)(F)F)cc4)C3)c(O)c2cc1C | H37Rv | agar |  | MIC90 |  | >6.25 µg/mL |
| CC(NNC(=O)c1ccncc1)c1ccc(F)cc1 | Erdman |  |  | MIC |  | 1.56 µg/mL |
| CC(=O)NC[C@H]1CN(c2ccc(N3CCOCC3)c(F)c2)C(=O)O1 | 117 strains |  |  | MIC50 |  | 0.5 µg/mL |
| C[C@H]1CC[C@H]2Oc3cccc(O)c3C(=O)[C@@H]12 | H37Rv | resazurin |  | MIC |  | 3.5 µM |
| O=Cc1coc2ccc(Br)cc2c1=O | My 331/88 |  |  | MIC |  | 250 µM |
| O=C(N/N=C/c1cccc(C(F)(F)F)c1)c1ccncc1 | H37Rv |  |  | MBC |  | >3.2 µg/mL |
| CCN(CC)C(=O)COc1cc2c(O)c3c(O)c(C)c4c(c13)C(=O)[C@@](C)(O/C=C/[C@H](OC)[C@@H](C)[C@@H](OC(C)=O)[C@H](C)[C@H](O)[C@H](C)[C@@H](O)[C@@H](C)/C=C/C=C(/C)C(=O)N2)O4 | H37RV ATCC9360 |  |  | MIC |  | 0.2 µg/mL |
| FC(F)(F)c1ccccc1NC(=S)SCc1ccco1 | H37Rv | resazurin |  | inhibition | 6.25 µg/mL | 1% |
| Cc1cc2oc(=O)c(C3=NNC(c4ccccc4-c4ccccn4)C3)c(O)c2cc1C | H37Rv | agar |  | MIC90 |  | >6.25 µg/mL |
| CC(=O)NNc1nc(C)c(C(=O)C=Cc2ccc(Cl)cc2)s1 | H37Rv | resazurin |  | inhibition | 6.25 µg/mL | 27% |
| CC(=O)Nc1c(C)c2ccccc2[nH]c1=O | H37Rv |  |  | MIC |  | >6.25 µg/mL |
| O=Cc1coc2ccc(Cl)cc2c1=O | My 331/88 |  |  | MIC |  | 250 µM |
| c1ccc2c(c1)NCCOCCNc1ccccc1OCCNCCO2 | H37Rv | BACTEC |  | inhibition | 12.5 µg/mL | 9% |
| O=C(NCc1ccccn1)c1ccc(Cl)cc1O | H37Rv |  | 14 d | MIC |  | 125 µM |
| CCC(Sc1ncnc2c1cnn2CCCCO)C(N)=O | H37Rv |  |  | MIC |  | >6.25 µg/mL |
| COC(=O)c1cc([N+](=O)[O-])c(C)c(C)n1 | H37Rv | BACTEC |  | inhibition | 12.5 µg/mL | 0% |
| CC(NNC(=O)c1ccncc1)c1ccc(Cl)c(Cl)c1 | H37Rv (thiacetazone-resistant) |  |  | MIC |  | >31.25 µg/mL |
| Cc1c(C)c2c(c3c1OC(C)(C)CC3)CCC(C)(C)O2 | H37Rv | BACTEC |  | inhibition | 12.5 µg/mL | -6% |
| CC(C)=CCNc1sc(-c2ccc(OCc3c(Cl)cccc3Cl)cc2)cc1C(=O)O | H37Rv | resazurin |  | EC50 |  | >128 µM |
| CCC(C)(C)NCCNCC(c1ccccc1)c1ccccc1 |  |  |  | MIC |  | 12.5 µM |
| COc1cccc(C(=O)Nc2sc(-c3ccc(OCc4c(Cl)cccc4Cl)cc3)cc2C(=O)O)c1 | H37Rv | resazurin |  | EC50 |  | 62.13 µM |
| NNC(=O)C1CCCNC1 | BCG |  |  | MIC |  | 2 µg/mL |
| Cn1c2c(c(=O)c3cc(O)ccc31)CC(O)C(C)(C)O2 | H37Rv | BACTEC |  | MIC bound |  | >12.5 µg/mL |
| COc1cc(C2CC(c3ccc(NC(=O)C(c4ccc(Cl)cc4)C(C)C)cc3)=NN2C(C)=O)cc(OC)c1OC | H37Rv | BACTEC |  | inhibition | 6.25 µg/mL | 0% |
| Cc1cc2oc(=O)c(C3=NNC(c4ccc(O)cc4O)C3)c(O)c2cc1C | H37Rv | agar |  | MIC90 |  | 11.22 µg/mL |
| CC(=O)NC[C@H]1CN(c2ccc(N3CCOCC3)c(F)c2)C(=O)O1 |  | fluorescence |  | MIC |  | 3.4 µM |
| CC(C)(C)CC(C)(C)NCCNc1cccc2ncccc12 |  |  |  | MIC |  | 3.13 µM |
| O=c1oc2ccccc2c(O)c1C1=NN(c2ccccc2)C(c2ccc(O)cc2O)C1 | H37Rv | agar |  | MIC90 |  | >6.25 µg/mL |
| COC1(c2ccccc2C)OC(=O)c2c(C)cccc21 | H37Rv | BACTEC |  | inhibition | 12.5 µg/mL | 0% |
| CC[C@@H](CO)NCCN[C@@H](CC)CO | U113 |  |  | MIC |  | 16 µg/mL |
| C[C@@H]1[C@@H](NCCNC[C@@H]2CC[C@H]3C[C@@H]2C3(C)C)C[C@H]2C[C@@H]1C2(C)C |  |  |  | MIC |  | 6.25 µM |

Repeating the first 8 entries:

smiles,strain,method,setting,read-out,tested at,value
CC1(C)[C@H]2CC[C@@H](CNCCNCCCN3CCCC3=O)[C@@H]1C2,,,,MIC,,50 µM
Cc1ccc(C2=NN(C(=O)c3ccncc3)C(O)(C(F)(F)F)C2)cc1,RGH102,,,MIC,,71.63 µM
Cc1c(N)c(=O)[nH]c2ccccc12,H37Rv,,,EC50,,>6.25 µg/mL
O=C(Nc1sc(-c2ccc(OCc3c(Cl)cccc3Cl)cc2)cc1C(=O)O)c1cccs1,H37Rv,resazurin,,MIC,,27.4 µM
CC(Sc1ncnc2c1cnn2COCCO)C(N)=O,H37Rv,,,MIC,,>6.25 µg/mL
O=C(c1ccncc1)N1N=C(c2cccs2)CC1(O)C(Cl)(Cl)Cl,RGH101,,,MIC,,>257 µM
O=C(Nc1sc(-c2ccc(OCc3c(Cl)cccc3Cl)cc2)cc1C(=O)O)c1ccccc1,H37Rv,resazurin,,EC50,,85.74 µM
CC(=O)Nc1c(OC(C)=O)nc2ccc(Cl)cc2c1-c1ccccc1,H37Rv,,,MIC,,>6.25 µg/mL